Fitness of HIV-1 LAI Vif variants in SupT1-APOBEC3G cells

The measurements come from Langley et al. 2025, preprint (doi:10.1101/2025.10.20.683452).

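Pooled viruses with one designed change each in Vif went through two 72 h rounds in SupT1 cells expressing APOBEC3G. Frequencies after the second round, in three biological replicates, were compared with the merged pool after the first round.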

Protein: Vif of HIV-1 LAI (a laboratory-adapted subtype B strain). Residues 12-115 were scanned and are shown below; the first letter is residue 12.
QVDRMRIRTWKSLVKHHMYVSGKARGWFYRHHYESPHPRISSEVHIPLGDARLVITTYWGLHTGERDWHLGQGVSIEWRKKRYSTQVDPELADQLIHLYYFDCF

Values are log2 enrichment relative to wild type (0); lower means weaker defence against APOBEC3G and poorer growth.
Substitutions are written as wild-type residue, site number, new residue.
This list holds changes to tyrosine only.
The median of three replicates is given.
Input reads are the counts in the merged round-one pool, before selection.

Q12Y (input reads 875) gave -3.43. For D14Y (input reads 404) the result was -0.78. R17Y (input reads 951) read -3.61. R19Y (input reads 1287) gave -3.42. W21Y (input reads 443) read -1.61.

For K22Y (input reads 489) the result was -0.94. With S23Y (input reads 864) the assay gave -3.33. L24Y (input reads 323) read -2.00. K26Y (input reads 431) read -0.91. With H27Y (input reads 910) the assay gave -1.15.

G33Y (input reads 101) gave 0.31. K34Y (input reads 347) read -1.90. A35Y (input reads 1231) gave -0.98. G37Y (input reads 805) gave -1.99. With R41Y (input reads 42) the assay gave 0.70.

For H42Y (input reads 1606) the result was -1.39. With H43Y (input reads 1279) the assay gave -0.94. E45Y (input reads 476) gave -2.97. S46Y (input reads 1350) gave -1.97. With I51Y (input reads 59) the assay gave 0.66.

With S52Y (input reads 1035) the assay gave -3.20. S53Y (input reads 346) gave -2.95. E54Y (input reads 337) read -2.77. H56Y (input reads 366) gave -0.31. I57Y (input reads 26) gave -2.08.

P58Y (input reads 395) gave -5.17. L59Y (input reads 23) read -0.34. For G60Y (input reads 297) the result was -1.18. With D61Y (input reads 469) the assay gave -2.45. A62Y (input reads 652) gave -2.08.

With V65Y (input reads 485) the assay gave -1.54. I66Y (input reads 125) read 0.19. T68Y (input reads 130) gave 1.18. For W70Y (input reads 421) the result was -2.64. With G71Y (input reads 51) the assay gave 0.57.

For L72Y (input reads 32) the result was -2.37. With H73Y (input reads 18) the assay gave -1.54. For T74Y (input reads 57) the result was 4.29. G75Y (input reads 1406) gave -1.41. For R77Y (input reads 369) the result was -2.44.

D78Y (input reads 918) gave -0.09. W79Y (input reads 625) read -2.41. H80Y (input reads 752) gave -0.19. With G82Y (input reads 70) the assay gave 0.80. Q83Y (input reads 328) read -1.50.

G84Y (input reads 22) read 0.50. V85Y (input reads 24) read 2.59. With S86Y (input reads 712) the assay gave -1.39. For I87Y (input reads 445) the result was -2.26. W89Y (input reads 154) gave -1.83.

For R90Y (input reads 48) the result was 0.47. K91Y (input reads 807) read -2.50. K92Y (input reads 360) read -2.66. T96Y (input reads 646) gave -3.51. Q97Y (input reads 386) gave -2.93.

For D99Y (input reads 1041) the result was -1.93. P100Y (input reads 526) gave -2.60. L102Y (input reads 104) read -0.90. A103Y (input reads 307) read -2.62. For D104Y (input reads 2144) the result was -2.88.

Q105Y (input reads 413) gave -1.06. H108Y (input reads 466) read -1.28. For F112Y (input reads 148) the result was -3.78. D113Y (input reads 1818) gave -2.35.

The first 8 entries again:

- Q12Y (input reads 875) -> -3.43
- D14Y (input reads 404) -> -0.78
- R17Y (input reads 951) -> -3.61
- R19Y (input reads 1287) -> -3.42
- W21Y (input reads 443) -> -1.61
- K22Y (input reads 489) -> -0.94
- S23Y (input reads 864) -> -3.33
- L24Y (input reads 323) -> -2.00

Some changes are missing from the data or left out.
The authors note that some positive scores may be noise, and some enriched variants failed when tested singly.
The scan is noisy: the rank correlation of replicates is about 0.4 to 0.65, and variants with under about 50 input reads tend to read too high.